Measured values from several laboratories, pooled; numbers as filed in NIAID ChemDB.

Shared fields: tests in culture; species: HIV-1; read by: RT activity; measure: EC90

ECn is the concentration giving n% inhibition of infection, replication or growth. Blank or dashed fields: not listed here. Rows are shuffled and stem from different studies.

smiles,mutations,strain or isolate,cell line,value
C/C(=N\NC(=O)CN1c2c(-c3ccccc3)n[nH]c2-c2ccccc2S1(=O)=O)c1sccc1C,,,PBMC,>100 µM
COc1ccc(/C=N/NC(=O)Cn2nc(-c3ccccc3)c3c2-c2ccccc2S(=O)(=O)N3C)c(OC)c1OC,,LAV-1,PBMC,>100 µM
COc1cc(C(=O)OCc2nc3ccccc3nc2C)cc(OC)c1OC,,89BZ167,PBMC,>100 µM
CN1c2c(-c3ccccc3)nn(CC(=O)N/N=C/c3ccc(Cl)cc3)c2-c2ccccc2S1(=O)=O,,LAV-1,PBMC,>100 µM
COCCNC(=O)[C@@H](NC(=O)[C@H](Cc1ccc2c(c1)OCO2)C[C@H](O)[C@H](Cc1ccccc1)NC(=O)OC(C)(C)C)C(C)C,,MN,MT-2,0.03 µM
C/C(=N\NC(=O)CN1c2c(-c3ccccc3)n[nH]c2-c2ccccc2S1(=O)=O)c1cc(C)cs1,,,PBMC,>100 µM
CCCCCCCCCCCCCCCCOCCCOP(=O)(NCC(=O)OC)OC[C@@H]1OC[C@H](n2cc(C)c(=O)[nH]c2=O)O1,RT-M184V,LAI,PBMC,80.5 µM
C/C(=N\NC(=O)CN1c2c(-c3ccccc3)n[nH]c2-c2ccccc2S1(=O)=O)c1ccc(C)o1,,,PBMC,>100 µM
Cc1cccc(C(=O)OCc2nc3ccccc3nc2C)c1O,,89BZ167,PBMC,>100 µM
COc1ccc(C[C@H](C[C@H](O)[C@H](Cc2ccccc2)NC(=O)OC(C)(C)C)C(=O)N[C@H](C(=O)NCCN(C)C)C(C)C)cc1,,MN,MT-2,0.3 µM
C/C(=N\NC(=O)CN1c2c(-c3ccccc3)n[nH]c2-c2ccccc2S1(=O)=O)c1ccc(Cl)s1,,,PBMC,>100 µM
CN1c2c(-c3ccccc3)nn(CC(=O)N/N=C/c3cccc([N+](=O)[O-])c3)c2-c2ccccc2S1(=O)=O,,LAV-1,PBMC,>100 µM
Cc1ccc(C(=O)OCc2nc3ccccc3nc2C)cc1O,,89BZ167,PBMC,>100 µM
CN1c2c(-c3ccccc3)nn(CC(=O)N/N=C/c3ccccc3F)c2-c2ccccc2S1(=O)=O,,LAV-1,PBMC,>100 µM
CC(C)[C@H](NC(=O)[C@H](Cc1ccc(O)cc1)C[C@H](O)[C@H](Cc1ccccc1)NC(=O)OC(C)(C)C)C(=O)N[C@@H](Cc1ccccc1)C(=O)N1CCOCC1,,MN,MT-2,0.3 µM
COc1ccc(C(=O)OCc2nc3ccccc3nc2C)c(OC)c1OC,,BaL,PBMC,>100 µM
COCCNC(=O)[C@@H](NC(=O)[C@H](Cc1ccccc1OC)C[C@H](O)[C@H](Cc1ccccc1)NC(=O)OC(C)(C)C)C(C)C,,MN,MT-2,1 µM
CN1c2c(-c3ccccc3)nn(CC(=O)N/N=C/c3ccccc3Br)c2-c2ccccc2S1(=O)=O,,LAV-1,PBMC,>100 µM
Cc1cn([C@H]2CO[C@@H](CO[P@]3(=O)OCC[C@H](c4cccc(Cl)c4)O3)O2)c(=O)[nH]c1=O,RT-M184V,LAI,PBMC,40 µM
COc1cccc(OC)c1C(=O)OCc1nc2ccccc2nc1C,,89BZ167,PBMC,71.7 µM
COC(=O)C(C)(C)NP(=O)(OC[C@@H]1OC[C@H](n2cc(C)c(=O)[nH]c2=O)O1)Oc1cccc2ccccc12,RT-M184V,LAI,PBMC,2.6 µM
CCN(CC)c1ccc(/C=N/NC(=O)Cn2nc(-c3ccccc3)c3c2-c2ccccc2S(=O)(=O)N3C)cc1,,LAV-1,PBMC,>100 µM
O=C(CN1c2c(-c3ccccc3)n[nH]c2-c2ccccc2S1(=O)=O)N/N=C/c1cccs1,,,PBMC,>100 µM
CN1c2c(-c3ccccc3)nn(CC(=O)N/N=C/c3ccc(O)cc3O)c2-c2ccccc2S1(=O)=O,,LAV-1,PBMC,5.9 µM
CC(C)[C@H](NC(=O)[C@H](Cc1ccccc1)C[C@H](O)[C@H](Cc1ccccc1)NC(=O)OC(C)(C)C)C(=O)N[C@@H](Cc1ccccc1)C(=O)N1CCOCC1,,MN,MT-2,0.03 µM
COC(=O)[C@H](C)NP(=O)(OC[C@@H]1OC[C@H](n2cc(C)c(=O)[nH]c2=O)O1)Oc1ccc(F)cc1,RT-M184V,LAI,PBMC,7.3 µM
COc1ccccc1C[C@H](C[C@H](O)[C@H](Cc1ccccc1)NC(=O)OC(C)(C)C)C(=O)N[C@H](C(=O)NCCN(C)C)C(C)C,,MN,MT-2,3 µM
COc1cc(-c2ccc(Nc3ccccc3C(=O)O)c(OC)c2)ccc1Nc1ccccc1C(=O)O,,BaL,PBMC,10.7 µM
COCCNC(=O)[C@@H](NC(=O)[C@H](Cc1ccc(OC)cc1)C[C@H](O)[C@H](Cc1ccccc1)NC(=O)OC(C)(C)C)C(C)C,,MN,MT-2,0.03 µM
Cc1nc2ccccc2nc1COC(=O)c1ccc2ccccc2c1O,,89BZ167,PBMC,>100 µM
COC(=O)[C@H](C)NP(=O)(OC[C@@H]1OC[C@H](n2cc(C)c(=O)[nH]c2=O)O1)Oc1ccc(Br)cc1,RT-M184V,LAI,PBMC,1.4 µM
COCCNC(=O)[C@@H](NC(=O)[C@H](Cc1ccc(OC)cc1OC)C[C@H](O)[C@H](Cc1ccccc1)NC(=O)OC(C)(C)C)C(C)C,,MN,MT-2,0.1 µM

The last 2 rows once more:

{"smiles": "COC(=O)[C@H](C)NP(=O)(OC[C@@H]1OC[C@H](n2cc(C)c(=O)[nH]c2=O)O1)Oc1ccc(Br)cc1", "mutations": "RT-M184V", "strain or isolate": "LAI", "cell line": "PBMC", "value": "1.4 µM"}
{"smiles": "COCCNC(=O)[C@@H](NC(=O)[C@H](Cc1ccc(OC)cc1OC)C[C@H](O)[C@H](Cc1ccccc1)NC(=O)OC(C)(C)C)C(C)C", "strain or isolate": "MN", "cell line": "MT-2", "value": "0.1 µM"}